PSTVd loop 15 mutant pool in Nicotiana benthamiana

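Three N. benthamiana plants were inoculated with the whole mutant pool. Progeny were sequenced from the inoculated region (day 5), the margin of the inoculated leaf (day 10) and systemic leaves (day 12).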

Region: loop 15 of PSTVd (intermediate strain), upper and lower strand joined, each 5' to 3', the first 7 letters being the upper strand, closing pairs included. Wild type: GGAAACCGCUACUAC. Varied positions (N): GGAAACCGNNNNNNC.

Numbers give reads per thousand; 0 = not seen among the reads, higher = more abundant.
Each value is the mean of three plants.
"Pool" is the share in the plasmid pool used as inoculum, on the same scale.
The inoculated region was read from the minus strand, the other sites from the plus strand.
IR is the inoculated region, LM the leaf margin, Sys the systemic leaves.
For reference, wild type rose from 33.9 per thousand in the pool to 202, 200, 159 (inoculated region), 724, 746, 710 (leaf margin) and 856, 883, 880 (systemic leaves).

- GGAAACCGAGCCUGC (pool 0.240): IR 0.121; LM 0.0134; Sys 0.00537
- GGAAACCGCUAUGUC (pool 0.352): IR 0.247; LM 0.0321; Sys 0.0155
- GGAAACCGUGAGUGC (pool 0.304): IR 0.344; LM 0.126; Sys 0.0572
- GGAAACCGCUAACCC (pool 0.176): IR 0.0614; LM 0.00742; Sys 0.00537
- GGAAACCGGAGUCAC (pool 0.288): IR 0.0679; LM 0.00539; Sys 0
- GGAAACCGAAUGUAC (pool 0.256): IR 0.331; LM 0.111; Sys 0.0664
- GGAAACCGAACUGGC (pool 0.256): IR 0.161; LM 0.00668; Sys 0
- GGAAACCGCAGCUGC (pool 0.192): IR 0.0849; LM 0.00668; Sys 0
- GGAAACCGGCACAAC (pool 0.208): IR 0.0894; LM 0.00668; Sys 0.0161
- GGAAACCGGAUAACC (pool 0.272): IR 0.0871; LM 0.00668; Sys 0
- GGAAACCGGGUAACC (pool 0.128): IR 0.0526; LM 0.0377; Sys 0.00760
- GGAAACCGGAAUUUC (pool 0.224): IR 0.323; LM 0.124; Sys 0.0322
- GGAAACCGUUUACAC (pool 0.336): IR 0.102; LM 0.00539; Sys 0.00537
- GGAAACCGGGCGCGC (pool 0.256): IR 0.137; LM 0.0134; Sys 0
- GGAAACCGCUGCAGC (pool 0.256): IR 0.0984; LM 0; Sys 0
- GGAAACCGCUAGGAC (pool 0.192): IR 0.269; LM 0.166; Sys 0.0900
- GGAAACCGCCAUAGC (pool 0.288): IR 0.108; LM 0; Sys 0.00537
- GGAAACCGACUAAGC (pool 0.224): IR 0.0471; LM 0.00539; Sys 0.00537
- GGAAACCGCCUGCAC (pool 0.224): IR 0.0996; LM 0.00668; Sys 0
- GGAAACCGUAUAACC (pool 0.224): IR 0.112; LM 0.0195; Sys 0.00537
- GGAAACCGGGGAUGC (pool 0.176): IR 0.0716; LM 0.00539; Sys 0
- GGAAACCGAGAGGCC (pool 0.256): IR 0.0524; LM 0.00668; Sys 0
- GGAAACCGACUGCGC (pool 0.288): IR 0.0930; LM 0.0341; Sys 0.00537
- GGAAACCGCAUGUCC (pool 0.176): IR 0.0684; LM 0.00668; Sys 0
- GGAAACCGGAGGAAC (pool 0.272): IR 0.125; LM 0.00539; Sys 0.00537
- GGAAACCGUCCUGAC (pool 0.256): IR 0.0697; LM 0.0241; Sys 0
- GGAAACCGCCAUGAC (pool 0.176): IR 0.107; LM 0.00742; Sys 0
- GGAAACCGGUCAUUC (pool 0.208): IR 0.140; LM 0.0134; Sys 0
- GGAAACCGUCUGCAC (pool 0.240): IR 0.0939; LM 0; Sys 0
- GGAAACCGUCACCCC (pool 0.256): IR 0.0838; LM 0; Sys 0.0107
- GGAAACCGGAGGUAC (pool 0.224): IR 0.276; LM 0.109; Sys 0.0161
- GGAAACCGCCGGUUC (pool 0.240): IR 0.288; LM 0.0778; Sys 0.0815
- GGAAACCGCUCCUGC (pool 0.288): IR 0.0777; LM 0.0175; Sys 0
- GGAAACCGGUUGACC (pool 0.144): IR 0.125; LM 0; Sys 0
- GGAAACCGAAGCGAC (pool 0.384): IR 0.107; LM 0.00668; Sys 0

The opening 4 entries, copied out:

{"sequence": "GGAAACCGAGCCUGC", "pool": "0.240", "IR": 0.121, "LM": 0.0134, "Sys": 0.00537}
{"sequence": "GGAAACCGCUAUGUC", "pool": "0.352", "IR": 0.247, "LM": 0.0321, "Sys": 0.0155}
{"sequence": "GGAAACCGUGAGUGC", "pool": "0.304", "IR": 0.344, "LM": 0.126, "Sys": 0.0572}
{"sequence": "GGAAACCGCUAACCC", "pool": "0.176", "IR": 0.0614, "LM": 0.00742, "Sys": 0.00537}

The authors trace changes outside the varied positions to PCR and sequencing errors or to mutation in the plant; presence does not show that a variant is infectious alone.
With 43,870-66,106 reads a sample, very low values are single reads.

Source: Wu et al. 2024 (doi:10.1371/journal.ppat.1012142), supplementary data.